Compound potency records, mixed from different reports. Data source: NIAID ChemDB in PubChem.

Shared fields: toxicity to cultured cells; cell line: VERO; measure: CC50

CCn is the concentration with n% toxicity to the cells. Neighbouring rows are from separate reports.

compound,result
O=C(NC1N=C(c2ccccc2)c2cc(Cl)ccc2NC1=O)c1ccccc1[N+](=O)[O-],5 µM
C[C@]1(/C=C/P(=O)(O)O)CO[C@@H](n2cnc3c(N)ncnc32)C1,>100 µM
COc1ccc2c(c1)c1cc(CO)c(C)cc1n2C,>128 µM
CN1CCN(c2ccccc2NCc2cccc3ccccc23)CC1,2 µg/mL
CCOc1ccc(Nc2nc3c(s2)C(=O)c2ccccc2C3=O)cc1,5 µg/mL
CCN1C[C@]2(COC)CC[C@H](OC)[C@]34C5CC6[C@H](OC)C5[C@](O)(C[C@@H]6OC)[C@@](O)(C13)[C@@H](OC)[C@H]24,64 µg/mL
COc1cc2c(oc(=O)c3cc(C)cc(OC)c32)c2c(C3OC(C)C(O)C(C)(O)C3O)ccc(O)c12,1.24 µg/mL
COc1cc2c(cc1-c1cc3cc4ccoc4cc3oc1=O)OCO2,>50 µg/mL
CC(C)OC(=O)CCc1ccccc1O[P@](=O)(N[C@@H](C)C(=O)OC(C)C)OC[C@H]1O[C@@H](n2cnc3c(N)nc(N)nc32)[C@](C)(O)[C@@H]1O,>100 µM
CCOCn1c([Se]c2ccccc2)c(CC)c(=O)[nH]c1=O,57.7 µM
O=C(c1ccc([N+](=O)[O-])cc1[N+](=O)[O-])N(N=CC=Cc1ccccc1)c1nnc(-c2ccccc2)c(-c2ccccc2)n1,27 µg/mL
O=S(=O)(O)c1ccc(-c2c3nc(c(-c4ccc(S(=O)(=O)O)cc4)c4ccc([n-]4)c(-c4ccc(S(=O)(=O)O)cc4)c4nc(c(-c5ccc(S(=O)(=O)O)cc5)c5ccc2[n-]5)C=C4)C=C3)cc1.[Na+],>100 µM
COc1cc2c3c(c1OC)Oc1ccc(cc1)CC1c4c(cc(OC)c(OC)c4Oc4ccc(cc4)CC3N(C)CC2)CCN1C,>12.5 µg/mL
CCN1C[C@]2(COC)CC[C@H](OC)[C@]34C1[C@@](O)([C@@H](OC)[C@H]23)[C@@]1(O)C[C@H](OC)C2C[C@@H]4[C@@H]1[C@H]2OC(C)=O,64 µg/mL
COc1ccc(OC)c(Cc2cnc3nc(N)nc(N)c3c2C)c1,>10 µg/mL
Oc1ccc(-c2c3nc(c(-c4ccc(O)cc4)c4ccc([nH]4)c(-c4ccc(O)cc4)c4nc(c(-c5ccc(O)cc5)c5ccc2[nH]5)C=C4)C=C3)cc1,3.7 µM
CCOC(=O)C1=C(C(=O)c2ccccc2)C(c2ccc([N+](=O)[O-])cc2)C(C(=O)c2ccccc2)=C(C(=O)OCC)N1,22.7 µg/mL
Cc1cnc(CC2=C[C@@]3(O)CC/C=C\CCCCN4CC[C@@H]2[C@]2(C[C@@H]5CCCCCCN5C23)C4)cn1,>4.76 µg/mL
COc1ccc(-c2c3c(N)n(-c4ccccc4)c(=S)nc3nc3[nH]c(=O)[nH]c(=O)c23)cc1OC,80 µg/mL
COc1c2c(cc3ccoc13)C(=O)[C@H]1c3cc4c(cc3OC[C@H]1O2)OCO4,>50 µg/mL
CCOC(=O)c1c[nH]cc1-c1ccc(Cl)cc1Cl,2 µg/mL
N#Cc1c(-c2ccc(Br)cc2)c2c(=O)[nH]c(=O)[nH]c2[nH]c1=O,150 µg/mL
C[C@]1(CCP(=O)(O)O)CO[C@@H](n2cnc3c(=O)[nH]c(N)nc32)C1,>100 µM
COc1ccccc1CC(=O)NC1N=C(c2ccccc2)c2ccccc2NC1=O,5 µM
CN1C(=O)C23SSC1(C)C(=O)N2c1ccccc1C3(C)C,6 µg/mL
NC(=O)c1cn(-c2ccncc2)c2cc(-c3ccncc3)ccc2c1=O,>200 µg/mL
COc1ccc2c(c1)[n+]([O-])c(/C(C)=N/NC(=O)c1ccccc1O)c(C)[n+]2[O-],6.06 µg/mL
COc1cc([N+](=O)[O-])ccc1C(=O)N[C@H]1N=C(c2ccccc2)c2ccccc2NC1=O,<0.3 µM
Cc1c(CN2CCSCC2)cc(-c2ccc(F)cc2)n1-c1ccccc1,4 µg/mL
Nc1ncnc2c1ncn2[C@@H]1C=C[C@@H](O)[C@H]1O,1.1 µg/mL
CCOC(=O)CCc1ccccc1O[P@@](=O)(N[C@@H](C)C(=O)OCC)OC[C@H]1O[C@@H](n2cnc3c(N)nc(N)nc32)[C@](C)(O)[C@@H]1O,>100 µM
COc1cc(-c2oc3c(OC)c(OC)cc(O)c3c(=O)c2OC)ccc1O,200 µM
Nc1ncnc2c1ncn2C[C@@H](CO)OCP(=O)(O)O,10 µg/mL
Nc1nc(NC2CC2)c2ncn([C@H]3C=C[C@@H](CO)O3)c2n1,350 µM
Nc1ncnc2c1ccn2[C@@H]1O[C@H](CO)[C@H](O)[C@H]1O,40 µg/mL
Cl.Cl.O=C(Nc1cccc(C(=O)Nc2ccc(C3=NCCN3)cc2)c1)c1ccc(C2=NCCN2)cc1,>50 µg/mL
CCCCCCC/C=C\C(O)C#CC#CC(O)CC,>120 µg/mL
NC1=Nc2c(ncn2CCCCC(F)(F)P(=O)(O)O)C(=O)C1,≥250 µM
Cc1ccc2c(c1)[nH]c1ccccc12,>128 µM
CCn1cc(C(N)=O)c(=O)c2ccc(-c3ccccc3)cc21,>50 µg/mL
CCOC(=O)[C@H](C)N[P@@](=O)(OC[C@H]1O[C@@H](n2cnc3c(N)nc(N)nc32)[C@](C)(O)[C@@H]1O)Oc1ccccc1CCC(=O)OC(C)C,>100 µM
CCc1ccc2c(c1)[nH]c1ccccc12,>128 µM
O=[N+]([O-])c1c[nH]cc1-c1ccc(Cl)cc1Cl,1 µg/mL
O=C(NC1N=C(c2ccccc2)c2cc(Cl)ccc2NC1=O)c1cccs1,3 µM
CCn1cc(C#N)c(=O)c2ccc(-c3ccncc3)cc21,>100 µg/mL
CCc1ccc2c(c1)[nH]c1ccc(N)cc12,62 µM
NC1=Nc2c(ncn2CCC(/C=C/P(=O)(O)O)CO)C(=O)C1,>250 µM
CCOC(=O)c1noc(/C=C/c2cccc3ccccc23)c1C(=O)c1ccccc1,>128 µM
CCn1cc(C(N)=O)c(=O)c2ccc(-c3ccc(N)cc3)cc21,>6.25 µg/mL
COc1ccccc1C(=O)NC1N=C(c2ccccc2)c2cc(Cl)ccc2NC1=O,0.7 µM
COc1cccc2cc(-c3cc(C(=O)OC(C)C)no3)oc12,>128 µM
Cc1cccc2c1OP(=O)(OCC(CO)CCn1cnc3c(=O)[nH]c(N)nc31)OC2,>328 µM
Nc1cc2nc3ccccc3nc2cc1N,4.64 µg/mL
CCOC(=O)CCc1ccccc1OP(=O)(N[C@@H](C)C(=O)OCC)OC[C@H]1O[C@@H](n2cnc3c(N)nc(N)nc32)[C@](C)(O)[C@@H]1O,>100 µM
CCN(CC)CCN1c2ccc(OC)cc2Sc2ccc3ccccc3c21,8.3 µg/mL
CCOC(=O)c1cc(-c2cc3ccccc3s2)on1,>128 µM
OCc1cn(Cc2ccccc2Cl)cc1-c1ccc(Cl)cc1,15 µg/mL
COc1ccc(-n2cc(C(N)=O)c(=O)c3ccc(-c4ccncc4)cc32)cc1,>25 µg/mL
Cc1c(CN2CCSCC2)cc(-c2ccccc2)n1-c1ccc(F)cc1,8 µg/mL
CCC/C(C)=N/NC(=S)SC,17 µg/mL
Nc1ccn([C@H]2CC[C@@H](CO)O2)c(=O)n1,50 µM
CC(C)(C)C(=O)NC1N=C(c2ccccc2)c2ccccc2NC1=O,6 µM
C[N+](C)=c1ccc2nc3c(cc(N)c4ccccc43)oc-2c1,0.34 µg/mL
CC(C)(C)c1ccc(CNc2ccccc2C2=NCCN2)cc1,2 µg/mL
NC(=O)c1cn(-c2ccc(C(F)(F)F)cc2)c2cc(-c3ccncc3)ccc2c1=O,>100 µg/mL
CCC(=O)OC[n+]1ccc2c(C)c3[nH]c4ccc(OC)cc4c3c(C)c2c1,<0.257 µg/mL
O=C1CCCN2C(CC1)C[C@]13CN4CCCC/C=C\CC[C@](O)(C=C(c5nccc6c5[nH]c5ccccc56)[C@@H]1CC4)C23,>4.76 µg/mL
Nc1ncnc2c1ncn2[C@@H]1O[C@H](CO)C[C@@H]1O,30 µg/mL
CCCCCCC/C=C\C(O)C#CC#CC(O)CCOC,>120 µg/mL
CCN(CC)c1ccc(N=C2C=CC(=O)C(NC(C)=O)=C2)c(C)c1,4.1 µg/mL
Cc1cccc2c1OP(=O)(OCC(CO)CCn1cc(C)c(=O)[nH]c1=O)OC2,>350 µM
COc1ccc(-c2c(C#N)c(N)nc3[nH]c(=O)[nH]c(=O)c23)cc1OC,200 µg/mL
O=CC1=C[C@@]2(O)CC/C=C\CCCCN3CC[C@@H]1[C@]1(C[C@@H]4/C=C\CCCCN4C12)C3,>4.76 µg/mL
Nc1nc(Cl)cc(NCCCCCCCCCCCCNc2cc(Cl)nc(N)n2)n1,>10 µg/mL
COc1cc(C)cc2c3c([nH]c12)C(=O)c1ccccc1C3=O,>128 µM
CCn1c(=O)c(C(N)=O)c(O)c2ccc(-c3ccncc3)cc21,>6.25 µg/mL
O=C(NC1N=C(c2ccccc2)c2cc(Cl)ccc2NC1=O)c1ccco1,1.5 µM
COc1ccc(-c2c(C#N)c(NC(=S)Nc3ccccc3)nc3[nH]c(=O)[nH]c(=O)c23)cc1OC,80 µg/mL
CCOC(=O)c1cc(-c2cc3cccc(OC)c3o2)on1,>128 µM
CCOCn1c([Se]c2ccccc2)c(F)c(=O)[nH]c1=O,13.3 µM
CCc1nc2ccc(NCCN(C)C)c3c(=O)c4ccccc4n1c23,3.38 µg/mL
Nc1nc2c(ncn2CCC(CO)CO)c(=O)[nH]1,>505 µM
O[C@]12C=C(Cc3nccc4ccccc34)[C@@H]3CCN(CCCC/C=C\CC1)C[C@@]31C[C@@H]3CCCCCCN3C12,>4.76 µg/mL
COc1cc2c(cc1-c1coc3cc4occc4cc3c1=O)OCO2,>50 µg/mL
COc1cc(O)c(CC=C(C)C)c2c1C(=O)CC(c1ccc(O)cc1)O2,18 µg/mL
Nc1ncnc2c1ncn2[C@@H]1C=C(CO)[C@@H](O)[C@H]1O,0.25 µg/mL
CCn1cc(C(=O)O)c(=O)c2ccc(-c3ccncc3)cc21,>200 µg/mL
CO[C@H]1/C=C/O[C@@]2(C)Oc3c(C)c(O)c4c(c3C2=O)C(=O)C=C(NC(=O)/C(C)=C\C=C\[C@H](C)[C@H]2OC(C)(C)O[C@@H]([C@@H](C)[C@H](OC(C)=O)[C@@H]1C)[C@@H]2C)C4=O,4.06 µg/mL
NC(=O)c1cn(CCO)c2cc(-c3ccncc3)ccc2c1=O,>50 µg/mL
CC1OC2CC(=O)OC2C2=C1C(=O)c1c(O)cccc1C2=O,0.4 µg/mL
CC1=C(CCC(=O)O)c2cc3nc(cc4[nH]c(cc5[nH]c(cc1n2)c(C)c5C(C)O)c(C)c4C(C)O)C(C)=C3CCC(=O)O,100 µM

The last 7 rows once more:

| compound | result |
|---|---|
| COc1cc(O)c(CC=C(C)C)c2c1C(=O)CC(c1ccc(O)cc1)O2 | 18 µg/mL |
| Nc1ncnc2c1ncn2[C@@H]1C=C(CO)[C@@H](O)[C@H]1O | 0.25 µg/mL |
| CCn1cc(C(=O)O)c(=O)c2ccc(-c3ccncc3)cc21 | >200 µg/mL |
| CO[C@H]1/C=C/O[C@@]2(C)Oc3c(C)c(O)c4c(c3C2=O)C(=O)C=C(NC(=O)/C(C)=C\C=C\[C@H](C)[C@H]2OC(C)(C)O[C@@H]([C@@H](C)[C@H](OC(C)=O)[C@@H]1C)[C@@H]2C)C4=O | 4.06 µg/mL |
| NC(=O)c1cn(CCO)c2cc(-c3ccncc3)ccc2c1=O | >50 µg/mL |
| CC1OC2CC(=O)OC2C2=C1C(=O)c1c(O)cccc1C2=O | 0.4 µg/mL |
| CC1=C(CCC(=O)O)c2cc3nc(cc4[nH]c(cc5[nH]c(cc1n2)c(C)c5C(C)O)c(C)c4C(C)O)C(C)=C3CCC(=O)O | 100 µM |